Molecular target: whole virus influenza neuraminidase, A/NWS/34-tern/Australia/G70C/75(H1N9) (Influenza A virus, UniProt P03472)
Conditions: read-out: inhibition constants (IC50), NWS/G70C, calculated on molecular weight per unit of attached GG167 derivative

**Q.** How did the IC50 turn out when “GG167-Bovine Serum Albumin-Biotin conjugate” was run?
**A.** Its IC50 is 7 nM.

From patent publication US6680054B1 (priority 1996, dated 2004)
